These results are taken from patent US20030220338A1, “Fungal efflux pump inhibitors” (priority 2001, published 2003).

The test system of assay [1] is Candida albicans YEM15 (over-expressing the CDR1 and CDR2 pumps). Briefly: Checkerboard / broth microdilution assay, potentiation of fluconazole vs. C. albicans. Particulars: for MIC: Candida albicans, 48 h; for MPC8 = concentration of efflux pump inhibitor necessary to reduce the fluconazole MIC 8-fold: in combination with fluconazole, strain YEM15.
Assay [2] concerns C. glabrata YEM19 (over-expressing the CgCDR1 and CgCDR2 pumps). In words: Checkerboard / broth microdilution assay, potentiation of fluconazole vs. C. glabrata. Particulars: for MIC: Nakaseomyces glabratus, 48 h; for MPC8: in combination with fluconazole, strain YEM19.

With `COc1ccc(N(C(=O)Nc2ccc(F)cc2)C(C)c2nc3ccccc3c(=O)n2N2CCN(CCCC(=O)NC#N)CC2)c(OC)c1` (centres unmarked) [Compound 181], in assay [1], the MIC is more than 32 mg/L and the “MPC8 = concentration of efflux pump inhibitor necessary to reduce the fluconazole MIC 8-fold” value amounted to 32 mg/L. For the same molecule, in assay [2], the MIC was more than 32 mg/L and the MPC8 was found to be 16 µg/mL.
In the case of `COc1ccc(N(C(=O)Nc2ccc(F)cc2)C(C)c2nc3ccccc3c(=O)n2N2CCN(C(=O)CN3CCN(C=O)CC3)CC2)c(OC)c1` (centres unmarked) [Compound 191], in assay [1], the MIC was more than 32 mg/L and the “MPC8 = concentration of efflux pump inhibitor necessary to reduce the fluconazole MIC 8-fold” value worked out at 8 mg/L. In addition, in assay [2], the minimum inhibitory concentration (MIC) is more than 32 mg/L and the MPC8 stood at 2 µg/mL.
Turning to `COC(=O)N(C)CC(=O)N1CCN(n2c(C(C)N(C(=O)Nc3ccc(F)cc3)c3ccc(OC)cc3OC)nc3ccccc3c2=O)CC1` (centres unmarked) [Compound 192], in assay [1], the minimal inhibitory concentration (MIC) was more than 32 mg/L and the “MPC8 = concentration of efflux pump inhibitor necessary to reduce the fluconazole MIC 8-fold” value stood at 1 mg/L. In assay [2], the MIC is more than 32 mg/L and the MPC8 came out at 0.5 µg/mL.
As to `COC(=O)N[C@@H](C)C(=O)N1CCN(n2c(C(C)N(C(=O)Nc3ccc(F)cc3)c3ccc(OC)cc3OC)nc3ccccc3c2=O)CC1` (some centres unmarked) [Compound 193], in assay [1], the MIC was more than 32 mg/L and the “MPC8 = concentration of efflux pump inhibitor necessary to reduce the fluconazole MIC 8-fold” value was 2 mg/L. In assay [2], the MIC is more than 32 mg/L and the MPC8 worked out at 0.25 µg/mL.
`COc1ccc(N(C(=O)Nc2ccc(F)cc2)C(C)c2nc3ccccc3c(=O)n2N2CCN(S(=O)(=O)CCN3CCCC3)CC2)c(OC)c1` (centres unmarked) [Compound 194]: in assay [1], the MIC is more than 32 mg/L and the “MPC8 = concentration of efflux pump inhibitor necessary to reduce the fluconazole MIC 8-fold” value was determined as 0.5 mg/L. In assay [2], the MIC was more than 32 mg/L and the MPC8 came out at 2 µg/mL.
Consider `COc1ccc(N(C(=O)Nc2ccc(F)cc2)C(C)c2nc3ccccc3c(=O)n2C2CCNCC2)c(OC)c1` (centres unmarked) [Compound 195], for which, in assay [1], the MIC is more than 32 mg/L and the “MPC8 = concentration of efflux pump inhibitor necessary to reduce the fluconazole MIC 8-fold” value came out at 32 mg/L. Besides, in assay [2], the MIC was more than 32 mg/L and the MPC8 amounted to 32 µg/mL.
For the molecule `COc1ccc(N(C(=O)Nc2ccc(F)cc2)C(C)c2nc3ccccc3c(=O)n2N2CCN(C(=O)[C@H]3CCCN3)CC2)c(OC)n1` (some centres unmarked) [Compound 198], in assay [1], the MIC is more than 32 mg/L and the “MPC8 = concentration of efflux pump inhibitor necessary to reduce the fluconazole MIC 8-fold” value is 32 mg/L. In assay [2], the MIC was more than 32 mg/L and the MPC8 came out at 2 µg/mL.
`COc1ccc(N(C(=O)Nc2ccc(F)cc2)C(C)c2nc3ccccc3c(=O)n2N2CCN(C(=O)N3CCN(C(=O)OC(C)(C)C)CC3)CC2)c(OC)c1` (centres unmarked) [Compound 199]: in assay [1], the MIC is more than 32 mg/L and the “MPC8 = concentration of efflux pump inhibitor necessary to reduce the fluconazole MIC 8-fold” value is 16 mg/L. Moreover, in assay [2], the MIC was more than 32 mg/L and the MPC8 is 2 µg/mL.
Turning to `COc1ccc(N(C(=O)Nc2ccc(F)cn2)C(C)c2nc3ccccc3c(=O)n2N2CCN(C(=O)CN3CCOCC3)CC2)c(OC)c1` (centres unmarked) [Compound 201], in assay [1], the minimum inhibitory concentration (MIC) is more than 32 mg/L and the “MPC8 = concentration of efflux pump inhibitor necessary to reduce the fluconazole MIC 8-fold” value came out at 4 mg/L. Also, in assay [2], the MIC was more than 32 mg/L and the MPC8 was found to be 0.5 µg/mL.
With `COc1ccc(N(C(=O)Nc2ccc(F)cc2)C(C)c2nc3ccccc3c(=O)n2N2CCN(C(=O)N3CCOCC3)CC2)c(OC)n1` (centres unmarked) [Compound 202], in assay [1], the MIC is more than 32 mg/L and the “MPC8 = concentration of efflux pump inhibitor necessary to reduce the fluconazole MIC 8-fold” value was determined as 0.06 mg/L. Further, in assay [2], the MIC is more than 32 mg/L and the MPC8 worked out at 1 µg/mL.
In the case of `CC(c1nc2ccccc2c(=O)n1N1CCN(CC(=O)N2CCOCC2)CC1)N(C(=O)Nc1ccc(F)cc1)c1ccc(OCC2CC2)cc1OCC1CC1` (centres unmarked) [Compound 203], in assay [1], the MIC is more than 32 mg/L and the “MPC8 = concentration of efflux pump inhibitor necessary to reduce the fluconazole MIC 8-fold” value was 4 mg/L. In assay [2], the MIC was more than 32 mg/L and the MPC8 is 2 µg/mL.
On to `CC(c1nc2ccccc2c(=O)n1N1CCN(C(=O)C2CC2)CC1)N(C(=O)Nc1ccc(F)cc1)c1cccc(-n2nccn2)c1` (centres unmarked) [Compound 205], for which, in assay [1], the MIC was more than 32 mg/L and the “MPC8 = concentration of efflux pump inhibitor necessary to reduce the fluconazole MIC 8-fold” value came to 0.25 mg/L. In assay [2], the MIC is more than 32 mg/L and the MPC8 is 2 µg/mL.
Consider `COc1ccc(C(C)=O)cc1N(C(=O)Nc1ccc(F)cc1)C(C)c1nc2ccccc2c(=O)n1N1CCN(C(=O)C2CC2)CC1` (centres unmarked) [Compound 207], for which, in assay [1], the MIC is more than 32 mg/L and the “MPC8 = concentration of efflux pump inhibitor necessary to reduce the fluconazole MIC 8-fold” value is 16 mg/L. Moreover, in assay [2], the MIC was more than 32 mg/L and the MPC8 is 8 µg/mL.
As to `COc1ccc(N(C(=O)Nc2ccc(F)cc2)C(C)c2nc3ccccc3c(=O)n2N2CCN(CC3CC3)CC2)c(OC)c1` (centres unmarked) [Compound 209], in assay [1], the MIC is more than 32 mg/L and the “MPC8 = concentration of efflux pump inhibitor necessary to reduce the fluconazole MIC 8-fold” value was 0.25 mg/L. Besides, in assay [2], the minimal inhibitory concentration (MIC) was more than 32 mg/L and the MPC8 is 1 µg/mL.
Regarding `COc1ccc(N(C(=O)Nc2ccc(F)cc2)C(C)c2nc3ccccc3c(=O)n2N2CCN(C(=O)N3CCC(N)C3)CC2)c(OC)c1` (centres unmarked) [Compound 210], in assay [1], the MIC is more than 32 mg/L and the “MPC8 = concentration of efflux pump inhibitor necessary to reduce the fluconazole MIC 8-fold” value was 8 mg/L. For the same molecule, in assay [2], the MIC was more than 32 mg/L and the MPC8 was 4 µg/mL.
For `COc1ccc(N(C(=O)Nc2ccc(F)cc2)C(C)c2nc3ccccc3c(=O)n2N2CCN(C(=O)N3CCC(N)CC3)CC2)c(OC)c1` (centres unmarked) [Compound 211], in assay [1], the MIC is more than 32 mg/L and the “MPC8 = concentration of efflux pump inhibitor necessary to reduce the fluconazole MIC 8-fold” value turned out to be 32 mg/L. For the same molecule, in assay [2], the MIC is more than 32 mg/L and the MPC8 stood at 8 µg/mL.
For the molecule `COc1ccc(N(C(=O)Nc2ccc(F)cc2)C(C)c2nc3ccccc3c(=O)n2N2CCN(C(=O)[C@@H]3CCCN3C(C)=O)CC2)c(OC)c1` (some centres unmarked) [Compound 212], in assay [1], the MIC was more than 32 mg/L and the “MPC8 = concentration of efflux pump inhibitor necessary to reduce the fluconazole MIC 8-fold” value was found to be 16 mg/L. Also, in assay [2], the MIC is more than 32 mg/L and the MPC8 is 2 µg/mL.
